Laboratory results taken from patent US9079899B2, “Anti-staphylococcal celecoxib derivatives” (THE OHIO STATE UNIVERSITY, priority 2010, dated 2015).

Tested on: HT-29 human colon adenocarcinoma cells
Test: Antiproliferative assay (MTT)
Format: cell-based
Conditions: IC50 (HT-29) / MIC against S. aureus
Description: As celecoxib has been reported to be cytotoxic to cancer cells, the growth inhibitory activities of celecoxib and selected derivatives were assessed in. HT-29 human colon adenocarcinoma cells after 24-h exposure in 10% FBS-supplemented RPMI 1640 medium.
Antiproliferative assay. The cytotoxicity of individual test agents in HT-29 human colon adenocarcinoma cells was evaluated by using the 3-(4,5-dimethylthiazol-2-yl)-2,5-diphenyltetrazolium (MTT) assay. Briefly, HT-29 cells were seeded into 96-well plates at 1×10^4 cells/well (with a minimum of 6 wells per test condition) in RPMI 1640 medium supplemented with 10% FBS and 10 μg/ml of gentamicin. After overnight incubation at 37° C. under 5% CO2, the medium from each well was removed and replenished with fresh aliquots of the same medium containing various concentrations of test agents dissolved in DMSO (final concentration, 0.1%). Control cells were treated with DMSO alone at a concentration equal to that in drug-treated cells. After 24 h of drug exposure, the medium was removed and replaced by 100 μl of 0.5 mg/ml MTT in 10% FBS-containing medium, and the cells were incubated in the CO2 incubator at 37° C. for 2 h. Subsequently, medium was removed from each well, and the reduced MTT dye was dissolved with 100 μl of DMSO per well. Absorbance at 570 nm was measured with a plate reader. The 50% inhibitory concentration (IC50) of each drug was determined from dose-response curves by using CalcuSyn software (Biosoft, Cambridge, United Kingdom).

| SMILES | Selectivity ratio |
| --- | --- |
| NS(=O)(=O)c1ccc(-n2nc(C(F)(F)F)cc2-c2ccc(-c3ccc(Cl)cc3)cc2)cc1 [Compound 11] | 3.1 |
| NCCCC[C@@H](N)C(=O)Nc1ccc(-n2nc(C(F)(F)F)cc2-c2ccc3c(ccc4ccccc43)c2)cc1 [Compound 30] | 0.8 |
| NCCCC[C@H](N)C(=O)Nc1ccc(-n2nc(C(F)(F)F)cc2-c2ccc3c(c2)Nc2ccccc2S3)cc1 [Compound 35] | 2.6 |
| NCCC(=O)Nc1ccc(-n2nc(C(F)(F)F)cc2-c2ccc(-c3ccc(C(F)(F)F)cc3)cc2)cc1 [Compound 26] | 1.1 |
| NCCC(=O)Nc1ccc(-n2nc(C(F)(F)F)cc2-c2ccc3c(ccc4ccccc43)c2)cc1 [Compound 27] | 1.5 |
| NCC(=O)Nc1ccc(-n2nc(C(F)(F)F)cc2-c2ccc3oc4ccccc4c3c2)cc1 [Compound 25] | 1.6 |
| NCCC(=O)Nc1ccc(-n2nc(C(F)(F)F)cc2-c2ccc3oc4ccccc4c3c2)cc1 [Compound 29] | 1.8 |
| NCC(=O)Nc1ccc(-n2nc(C(F)(F)F)cc2-c2ccc3c(ccc4ccccc43)c2)cc1 [Compound 23] | 0.9 |
| NCCC(=O)Nc1ccc(-n2nc(C(F)(F)F)cc2-c2ccc3c(c2)Nc2ccccc2S3)cc1 [Compound 28] | 1.9 |
| NCC(=O)Nc1ccc(-n2nc(C(F)(F)F)cc2-c2ccc3c(c2)Nc2ccccc2S3)cc1 [Compound 24] | 1.6 |
| NCCCC[C@H](N)C(=O)Nc1ccc(-n2nc(C(F)(F)F)cc2-c2ccc(-c3ccc(C(F)(F)F)cc3)cc2)cc1 [Compound 33] | 0.8 |
| NCCCC[C@@H](N)C(=O)Nc1ccc(-n2nc(C(F)(F)F)cc2-c2ccc3c(c2)Nc2ccccc2S3)cc1 [Compound 31] | 4.4 |
| NCCCC[C@H](N)C(=O)Nc1ccc(-n2nc(C(F)(F)F)cc2-c2ccc3c(ccc4ccccc43)c2)cc1 [Compound 34] | 4.9 |
